Record: PubChem BioAssay AID624099 (ICCB-Longwood, 2012)
Purpose: 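Knock-downs relieving repression by E2 of an HPV18 LCR luciferase reporter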 (primary screen). Cells: human C33A cervical carcinoma cells (HPV-negative) stably expressing BPV1 E2 and an HPV18 LCR luciferase reporter. Reagents: siRNA pool against human genes, 40 nM. Time to read-out: 72 h. Measured: 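HPV18 LCR reporter light per well, converted to plate-wise z-scores that exclude control wells, and averaged over triplicate plates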. Direction: mean z-score and z-score: higher = stronger reporter signal, weaker E2 silencing. Active means: 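Mean z ≥ 2 together with z ≥ 2 in two or more of the three replicates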.
The deposit covers about 21,000 reagents; shown is a part drawn at random. 497 of all reagents (2.4%) were called active. 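Higher z means weaker E2 silencing; only reporter increases were scored, and knock-downs that hurt cell survival may mask genuine repressor factors.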 Reagent sequences are not shown.

target | mean z-score | z-score, replicate A | z-score, replicate B | z-score, replicate C | outcome
NOTCH1 | -0.6 | -0.53 | -0.83 | -0.43 | inactive
F10 | -1.18 | -1 | -1.3 | -1.24 | inactive
DAO | 1.35 | 1.28 | 1.25 | 1.54 | inactive
RIBC1 | -0.69 | -1.04 | -0.66 | -0.36 | inactive
ZNF530 | 2.32 | 2.15 | 2.62 | 2.19 | active
HSPA4L | -0.34 | -0.17 | -0.42 | -0.45 | inactive
CTDP1 | -0.11 | -0.26 | -0.03 | -0.04 | inactive
RHBG | 0.06 | 0 | 0.45 | -0.27 | inactive
LRRC36 | -0.56 | -0.6 | -0.53 | -0.55 | inactive
ANKRD54 | -0.58 | -0.71 | -0.38 | -0.64 | inactive
JMJD8 | 0.8 | 0.58 | 0.75 | 1.07 | inactive
FH | 0.3 | 0.45 | 0.38 | 0.07 | inactive
RIN2 | 0.17 | -0.03 | 0.13 | 0.42 | inactive
CDC7 | -0.33 | -0.2 | -0.47 | -0.34 | inactive
HPCAL4 | -1.05 | -0.47 | -1.17 | -1.52 | inactive
KSR1 | -0.31 | -0.4 | -0.13 | -0.41 | inactive
MRPS18C | -0.14 | -0.21 | 0.05 | -0.26 | inactive
ZKSCAN7 | 0.34 | 0.03 | 0.4 | 0.59 | inactive
PIP5K1B | -0.7 | -0.73 | -1.28 | -0.08 | inactive
LOC390377 (retired record) | -0.78 | -0.65 | -0.66 | -1.04 | inactive
CKLF | -0.26 | -0.3 | -0.14 | -0.33 | inactive
GPR63 | -2.05 | -2.27 | -1.9 | -1.98 | inactive
CBS | -0.93 | -1.15 | -0.87 | -0.76 | inactive
SPATA31H1 | -0.24 | -0.41 | -0.07 | -0.25 | inactive
LOC400606 (retired record) | -0.48 | -0.55 | -0.27 | -0.62 | inactive
ERBB4 | 2.54 | 3.04 | 2.32 | 2.27 | active
TDRD10 | -2.13 | -2.4 | -1.89 | -2.11 | inactive
PCDHA10 | 0.2 | 0.3 | 0.12 | 0.19 | inactive
ACVR2A | -0.53 | -0.79 | -0.61 | -0.2 | inactive
GALM | 2.83 | 3.14 | 2.85 | 2.51 | active
RGL1 | -0.07 | -0.34 | 0 | 0.13 | inactive
PXDN | -0.32 | -0.38 | -0.31 | -0.28 | inactive
GATM | 1.55 | 1.93 | 1.49 | 1.22 | inactive
PLCD4 | -0.72 | -0.72 | -0.46 | -0.97 | inactive
H4C7 | 0.46 | 0.51 | 0.37 | 0.49 | inactive
CDC20 | 0.48 | 0.69 | 0.46 | 0.28 | inactive
LOC387983 (retired record) | 0.14 | 0.06 | 0.16 | 0.2 | inactive
LOC203604 (retired record) | -0.67 | -1.07 | -0.54 | -0.39 | inactive
BRD8 | 3.18 | 2.85 | 3.38 | 3.32 | active
